Here are results for seven molecules from US20120178668A1.

What all share (test): cell-based or functional assay
One assay concerns the target T1, rat GC-A (rat), P18910.
T1 chain: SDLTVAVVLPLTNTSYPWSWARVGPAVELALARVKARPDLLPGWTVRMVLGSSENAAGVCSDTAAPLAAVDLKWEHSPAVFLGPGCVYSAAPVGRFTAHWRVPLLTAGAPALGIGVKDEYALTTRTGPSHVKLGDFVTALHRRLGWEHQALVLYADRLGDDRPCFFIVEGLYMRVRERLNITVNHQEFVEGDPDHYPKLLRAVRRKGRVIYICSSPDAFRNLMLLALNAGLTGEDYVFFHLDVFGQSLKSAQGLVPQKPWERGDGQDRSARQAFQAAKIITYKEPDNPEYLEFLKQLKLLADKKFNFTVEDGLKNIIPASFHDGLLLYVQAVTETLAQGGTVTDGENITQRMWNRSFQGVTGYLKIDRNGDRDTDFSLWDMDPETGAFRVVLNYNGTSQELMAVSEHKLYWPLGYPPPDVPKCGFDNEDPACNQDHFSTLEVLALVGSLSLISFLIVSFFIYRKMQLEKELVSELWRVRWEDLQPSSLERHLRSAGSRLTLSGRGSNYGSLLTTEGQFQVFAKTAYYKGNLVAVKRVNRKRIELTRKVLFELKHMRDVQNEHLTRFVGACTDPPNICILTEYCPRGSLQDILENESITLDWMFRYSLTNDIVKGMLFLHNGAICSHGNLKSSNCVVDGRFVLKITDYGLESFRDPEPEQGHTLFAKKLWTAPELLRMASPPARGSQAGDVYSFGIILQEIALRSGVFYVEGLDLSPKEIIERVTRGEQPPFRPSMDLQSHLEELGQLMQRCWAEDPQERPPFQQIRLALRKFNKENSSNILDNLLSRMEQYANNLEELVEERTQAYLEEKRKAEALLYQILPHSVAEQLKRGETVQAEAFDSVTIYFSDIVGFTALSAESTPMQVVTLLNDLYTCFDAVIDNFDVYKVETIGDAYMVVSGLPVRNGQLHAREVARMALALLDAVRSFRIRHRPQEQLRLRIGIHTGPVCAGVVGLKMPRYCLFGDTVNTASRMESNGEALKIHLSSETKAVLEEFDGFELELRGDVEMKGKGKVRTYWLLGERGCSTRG

In assay [1] the target is T2, Natriuretic Peptide Receptor-A (NPR-A) of MDCK cells (canine (endogenous in MDCK cells)), A0A8I3.
T2 chain: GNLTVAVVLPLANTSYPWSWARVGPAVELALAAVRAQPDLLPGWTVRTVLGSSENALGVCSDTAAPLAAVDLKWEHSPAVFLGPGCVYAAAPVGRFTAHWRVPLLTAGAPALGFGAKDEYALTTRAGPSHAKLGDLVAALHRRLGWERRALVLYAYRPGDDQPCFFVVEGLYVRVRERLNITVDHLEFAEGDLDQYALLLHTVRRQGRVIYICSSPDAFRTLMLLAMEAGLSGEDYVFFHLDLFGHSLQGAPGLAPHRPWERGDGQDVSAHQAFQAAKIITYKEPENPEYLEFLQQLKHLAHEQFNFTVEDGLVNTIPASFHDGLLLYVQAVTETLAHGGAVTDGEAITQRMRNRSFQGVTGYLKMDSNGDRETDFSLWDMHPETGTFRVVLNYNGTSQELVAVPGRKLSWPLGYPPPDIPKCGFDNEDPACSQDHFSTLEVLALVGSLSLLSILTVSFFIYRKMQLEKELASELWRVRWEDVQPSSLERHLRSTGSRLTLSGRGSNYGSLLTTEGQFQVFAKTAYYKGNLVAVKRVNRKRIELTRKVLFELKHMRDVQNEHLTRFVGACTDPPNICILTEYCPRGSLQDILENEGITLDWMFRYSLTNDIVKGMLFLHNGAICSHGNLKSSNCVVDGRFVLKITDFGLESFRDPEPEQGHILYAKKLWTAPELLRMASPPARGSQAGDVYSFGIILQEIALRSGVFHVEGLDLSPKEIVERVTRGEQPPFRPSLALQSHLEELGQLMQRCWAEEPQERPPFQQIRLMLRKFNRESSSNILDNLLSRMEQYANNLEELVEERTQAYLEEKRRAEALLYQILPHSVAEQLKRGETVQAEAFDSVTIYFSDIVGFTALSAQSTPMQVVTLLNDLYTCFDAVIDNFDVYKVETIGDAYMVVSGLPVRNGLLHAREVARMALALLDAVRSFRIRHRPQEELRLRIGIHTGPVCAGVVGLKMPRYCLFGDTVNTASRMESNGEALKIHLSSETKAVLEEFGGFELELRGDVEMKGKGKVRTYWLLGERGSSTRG

Assay [2] addresses T3, NPR-A of HeLa cells, P16066.
T3 chain: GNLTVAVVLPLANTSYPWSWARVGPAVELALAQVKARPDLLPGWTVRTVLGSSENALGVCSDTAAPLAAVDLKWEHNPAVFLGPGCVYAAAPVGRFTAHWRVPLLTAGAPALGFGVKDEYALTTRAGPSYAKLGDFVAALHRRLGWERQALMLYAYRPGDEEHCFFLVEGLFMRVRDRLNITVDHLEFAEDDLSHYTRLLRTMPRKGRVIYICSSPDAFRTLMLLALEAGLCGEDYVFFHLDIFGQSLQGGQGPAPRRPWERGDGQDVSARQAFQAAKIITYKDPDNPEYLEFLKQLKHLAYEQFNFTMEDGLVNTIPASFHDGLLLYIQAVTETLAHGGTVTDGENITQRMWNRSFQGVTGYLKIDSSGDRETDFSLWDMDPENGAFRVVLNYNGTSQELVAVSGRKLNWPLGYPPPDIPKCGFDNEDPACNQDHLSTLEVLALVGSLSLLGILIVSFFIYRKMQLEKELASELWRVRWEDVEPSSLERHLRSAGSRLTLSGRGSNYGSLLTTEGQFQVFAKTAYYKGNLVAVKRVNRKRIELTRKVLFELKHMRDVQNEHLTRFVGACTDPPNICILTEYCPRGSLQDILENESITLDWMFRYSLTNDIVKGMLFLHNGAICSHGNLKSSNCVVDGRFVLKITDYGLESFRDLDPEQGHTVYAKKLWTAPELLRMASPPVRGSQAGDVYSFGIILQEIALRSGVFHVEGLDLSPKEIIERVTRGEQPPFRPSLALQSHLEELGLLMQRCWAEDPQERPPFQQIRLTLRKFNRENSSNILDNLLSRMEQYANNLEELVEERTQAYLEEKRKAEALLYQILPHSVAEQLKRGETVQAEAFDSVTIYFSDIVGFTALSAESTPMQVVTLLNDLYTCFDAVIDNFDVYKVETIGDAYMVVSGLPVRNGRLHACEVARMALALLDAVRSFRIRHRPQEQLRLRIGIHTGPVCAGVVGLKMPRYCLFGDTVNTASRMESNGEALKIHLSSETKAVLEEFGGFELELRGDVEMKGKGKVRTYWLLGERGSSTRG

B1: BTT (peptide)
peptide: SPKMVQGSGCFGFPLDRIGSVSGLGCNRIMQNPPKKFSGE
modifications: not checked
B1 displayed a mean relaxation of denuded aortic rings, % of KCl response (% of KCl response) in the assay with rat GC-A (rat), P18910 of 62.1. Moreover, in assay [1], the -Log10 EC50 (pEC50) of cGMP accumulation in MDCK cells amounted to 8.18 and the EC50 of cGMP accumulation in MDCK cells was determined as 7.06 nM.

B2: DTT (peptide)
peptide: EVKYDPCFGFPLDRIGSVSGLGCNRIMQNPPKKFSGE
modifications: not checked
Consider B2, for which the mean relaxation of denuded aortic rings, % of KCl response (% of KCl response) with rat GC-A (rat), P18910 is 58.9. Besides, in assay [1], the -Log10 EC50 (pEC50) of cGMP accumulation in MDCK cells stood at 7.72 and the EC50 of cGMP accumulation in MDCK cells was 21.2 nM.

B3: TDT (peptide)
peptide: SDSKIGNGCFGHKIDRINHVSNLGCNRIMQNPPKKFSGE
modifications: not checked
In assay [2], B3 had a -Log10EC50 (pEC50) of cGMP accumulation in HeLa cells of 7.21 and an EC50 of cGMP accumulation in HeLa cells of 70.4 nM.

B4: V20A TDT (peptide)
peptide: SDSKIGNGCFGHKIDRINHASNLGCNRIMQNPPKKFSGE
modifications: not checked
Turning to B4, in assay [2], the -Log10EC50 (pEC50) of cGMP accumulation in HeLa cells was 6.42 and the EC50 of cGMP accumulation in HeLa cells is 455 nM.

B5: H12R TDT (peptide)
peptide: SDSKIGNGCFGRKIDRINHVSNLGCNRIMQNPPKKFSGE
modifications: not checked
Regarding B5, in assay [2], the -Log10EC50 (pEC50) of cGMP accumulation in HeLa cells came to 8.05 and the EC50 of cGMP accumulation in HeLa cells is 8.89 nM.

B6: N22G TDT (peptide)
peptide: SDSKIGNGCFGHKIDRINHVSGLGCNRIMQNPPKKFSGE
modifications: not checked
B6: in assay [2], the -Log10EC50 (pEC50) of cGMP accumulation in HeLa cells is 8.5 and the EC50 of cGMP accumulation in HeLa cells worked out at 3.14 nM.

B7: H12A TDT (peptide)
peptide: SDSKIGNGCFGAKIDRINHVSNLGCNRIMQNPPKKFSGE
modifications: not checked
On to B7, for which, in assay [2], the -Log10EC50 (pEC50) of cGMP accumulation in HeLa cells came to 6.65 and the EC50 of cGMP accumulation in HeLa cells was 229 nM.
